Laboratory results published in EP0497988A1, “ANTIVIRAL AGENT” (DAINIPPON INK AND CHEMICALS, INC., priority 1990, dated 1992).

test system: HTLV-IIIB; assay: Anti-HIV activity by MTT (tetrazolium) method in MT-4 cells; assay type: cell-based; settings: selectivity index CC₅₀/EC₅₀
Description: Test Method: MMT (the tetrazolium assay) method Cell: MT-4 Cell Virus: HTLV-IIIB (Infection : 3 x 10⁵ plaque forming units (PFU)/ml) MT-4 cells were suspended in a culture medium at 2 x 10⁵ cells/ml and infected with HIV-IIIB at a multiplicity of infection of 0.01. Immediately after infection, 100µl of cell suspension was placed into microtiter tray wells containing various concentrations of the test samples. At the same time, the mock-infected cells were also cultured together with the samples in order to assess the cell toxicity of the test samples to the MT-4 cell. They were cultured in a CO₂-gas incubator at 37°C for 5 days, and the number of viable cells were determined by the MTT method. Antiviral activity is expressed by EC₅₀ (50% effective concentration), the concentration at which the agent protects 50% of the cells from injury by HIV infection, and cell toxicity by CC₅₀ (50% cell toxicity concentration), the concentration at which 50% of the cells are injured by the agent. Selectivity is measured by a selectivity index (S.I), which is expressed by CC₅₀/EC₅₀ (R. Pauwels, et al., J. of […], vol. 20, 1988, pp. 309-321).

Question: Which SI does the source give for “sodium salt of octadecyl maltohexaoside sulfate [MHS-3]” here?
Answer: The SI was 56.

Question: How did the SI turn out when “sodium salt of n-decyl β-laminaripentaoside sulfate [LPS-3]” was run?
Answer: Its SI is greater than 15.

Question: How did the SI turn out when “sodium salt of octadecyl maltoheptaoside sulfate [MHS-1]” was run?
Answer: The SI was greater than 1.

Question: Which SI does the source give for “sodium salt of n-hexadecyl β-laminaripentaoside sulfate [LPS-2]” here?
Answer: The SI was “= 27”.

Question: With “sodium salt of octadecyl maltotrioside sulfate [MTS-1]” as the substance, how does the SI read?
Answer: Its SI is greater than 1.
